Anti-infective test results gathered from many reports (values: NIAID ChemDB through PubChem).

Shared fields: tests in culture; species: Mycobacterium avium

An empty or dashed field is not shown.

smiles	measure	changes	strain	method	conditions	result
NC(=S)NNC(=O)c1ccccc1	MIC	-	ATCC 19421	-	-	>100 µg/mL
Cc1onc(-c2ccccc2Cl)c1C(=O)N[C@@H]1C(=O)N2[C@@H]1SC(C)(C)[C@@H]2C(=O)O	Median MIC	-	ATCC 25291	-	-	>256 µg/mL
Cc1ccn2c(C(=O)NCc3ccc(N4CCN(c5ccc(C(F)(F)F)cn5)CC4)c(F)c3)c(C)nc2c1	MIC	Gentamicin-resistant	104	resazurin	-	<0.0078 µg/mL
O=C(NCc1ccccc1)c1cc(Cl)cc(Cl)c1O	MIC	-	ATCC 25291	-	14 d	125 µM
CC(=O)NC[C@H]1CN(c2ccc(N3CCN(c4ccc([N+](=O)[O-])s4)CC3)c(F)c2)C(=O)O1	MIC	-	ATCC700897	-	-	<0.125 µg/mL
O=C(Oc1ccc(Cl)cc1C(=O)Nc1ccc(Br)cc1)c1ccccc1	MIC	-	330/88	broth dilution	14 d	4 µM
O=C(Nc1ccccc1N1CCSCC1)c1ccc(-c2ccccc2)cc1	MIC	-	103317	-	-	>16 µg/mL
O=c1oc2ccc(Cl)cc2c(=O)n1-c1cccc(Cl)c1	MIC	-	CNCTC MY330/88	-	-	8 µM
CCCCCCCCCCCCNC[C@H]1O[C@H](O[C@H]2O[C@H](CNCCCCCCCCCCCC)[C@@H](O)[C@H](O)[C@H]2O)[C@H](O)[C@@H](O)[C@@H]1O	MIC	-	NJ168	-	-	8 µg/mL
O=Cc1coc2ccc(Cl)cc2c1=O	MIC	-	MY330/88	-	-	1000 µM
C[C@H]1COc2c(N3CCN(C)CC3)c(F)cc3c(=O)c(C(=O)O)cn1c23	MIC	-	MS-6	-	-	0.5 µg/mL
CCCCCCCOc1ccccc1NC(=O)OCC[NH+]1CCCC1	MIC	-	MY330/88	-	-	32 µM
CCCOc1cccc(NC(=O)OCCN(C)C)c1	MIC	-	MY330/88	-	-	1000 µM
O=[N+]([O-])c1cc(Sc2nc3c(Br)c(Br)c(Br)c(Br)c3[nH]2)cc([N+](=O)[O-])c1	MIC	-	MY330/88	-	-	>250 µM
CC[C@H]1OC(=O)[C@H](C)[C@@H](O[C@H]2C[C@@](C)(OC)[C@@H](O)[C@H](C)O2)[C@H](C)[C@@H](O[C@@H]2O[C@H](C)C[C@H](N(C)C)[C@H]2O)[C@](C)(OC)C[C@@H](C)C(=O)[C@H](C)[C@@H](O)[C@]1(C)O	MBC	-	453	-	-	16 µg/mL
Cc1ccn2c(C(=O)NCc3ccc(N4CCC(c5ccc(OC(F)(F)F)cc5)CC4)cc3)c(C)nc2c1	MIC	-	101	resazurin	-	<2 µM
O=c1oc2ccc([N+](=O)[O-])cc2c(=O)n1-c1ccc(F)cc1	MIC	-	CNCTC MY330/88	-	-	500 µM
Cc1ccn2c(C(=O)NCc3ccc(N4CCSCC4)c(F)c3)c(C)nc2c1	MIC	-	2151	resazurin	-	2–10 µM
CCCCCCCCCCOc1ccc(NC(=O)OCCN2CCCCC2)cc1	MIC	-	MY330/88	-	-	8 µM
N/C(=N\NC(=O)c1ccc([N+](=O)[O-])cc1)SCc1cccc(Cl)c1	MIC	-	ATCC 19421	-	-	>100 µg/mL
O=[N+]([O-])c1cc(Sc2nc3c(Br)cc(Br)cc3[nH]2)cc([N+](=O)[O-])c1	MIC	-	MY330/88	-	-	62.5 µM
CCCCCCCCCCCCCCCCCCN(C)C[C@H]1O[C@H](O[C@H]2O[C@H](CN(C)CCCCCCCCCCCCCCCCCC)[C@@H](O)[C@H](O)[C@H]2O)[C@H](O)[C@@H](O)[C@@H]1O	MIC	-	NJ211	-	-	>128 µg/mL
N/C(=N/N=C/c1ccccc1Cl)c1ccccn1	MIC	-	-	-	-	16 µg/mL
O=C(Nc1ccc(F)cc1)c1ncccc1O	MIC	-	CNCTC MY330/88	-	-	125 µM
Cc1cccc(C(N)=Nc2nc(-c3ccccn3)cc3ccccc23)c1	MIC	-	101	-	-	2 µg/mL
O=C(Oc1cc(Cl)ccc1C(=O)Nc1ccc(Cl)c(Cl)c1)c1cnccn1	MIC	-	330/88	-	21 d	16 µM
CCOc1cccc(NC(=O)OCCN2CCCCC2)c1	MIC	-	MY330/88	-	-	500 µM
CCCCCCCCCCCCN(CCCCCCCCCCCC)C[C@H]1O[C@H](O[C@H]2O[C@H](CN(CCCCCCCCCCCC)CCCCCCCCCCCC)[C@@H](O)[C@H](O)[C@H]2O)[C@H](O)[C@@H](O)[C@@H]1O	MIC	-	NJ1854	-	-	>128 µg/mL
FC(F)(F)C(F)(F)C(F)(F)C(F)(F)c1nc2c(Br)c(Br)c(Br)c(Br)c2[nH]1	MIC	-	MY330/88	-	-	32 µM
CCCCCCCCCOc1ccccc1NC(=O)OCC[NH+]1CCCC1	MIC	-	MY330/88	-	-	16 µM
O=c1oc2ccccc2c(=O)n1-c1cccc([N+](=O)[O-])c1	MIC	-	CNCTC MY330/88	-	-	31 µM
CC(C)N1CCN(c2cc3c(cc2F)c(=O)c(C(=O)O)cn3C2CC2)CC1	MIC90	-	-	-	-	8 µg/mL
COc1ccc(C(=O)N/N=C(\N)SCc2cccc(Cl)c2)cc1	MIC	-	ATCC 19421	-	-	>100 µg/mL
N#Cc1ccc(/C=N/N=C(\N)c2ccccn2)cc1	MIC	-	-	-	-	256 µg/mL
CCCCCCCCS(=O)(=O)NC[C@H]1O[C@H](O[C@H]2O[C@H](CNS(=O)(=O)CCCCCCCC)[C@@H](O)[C@H](O)[C@H]2O)[C@H](O)[C@@H](O)[C@@H]1O	MIC	-	NJ1854	-	-	32–64 µg/mL
O=C(Oc1cc(Cl)ccc1C(=O)Nc1cccc(Cl)c1)c1cnccn1	MIC	-	330/88	-	14 d	4 µM
FC(F)(F)C(F)(F)c1nc2cc(Cl)c(Cl)cc2[nH]1	MIC	-	MY330/88	-	-	32 µM
O=C(Oc1ccc(Cl)cc1C(=O)Nc1ccc(C(F)(F)F)cc1)c1cnccn1	MIC	-	330/88	-	14 d	2 µM
CCOc1c(N2CCC(C(C)(C)N)C2)c(F)cc2c(=O)c(C(=O)O)cn(C3CC3)c12	MIC	-	RG1	-	-	0.25 µg/mL
O=C(NCc1ccccc1)c1ncccc1O	MIC	-	CNCTC MY330/88	-	-	500 µM
CCCCCC(N)=NC[C@H]1O[C@H](O[C@H]2O[C@H](CN=C(N)CCCCC)[C@@H](O)[C@H](O)[C@H]2O)[C@H](O)[C@@H](O)[C@@H]1O	MIC	-	NJ3404	-	-	>128 µg/mL
O=Cc1coc2ccccc2c1=O	MIC	-	MY330/88	-	-	1000 µM
Cc1ccn2c(C(=O)NCc3ccnc(N4CCC(c5ccc(C(F)(F)F)cc5)CC4)c3)c(C)nc2c1	MIC	-	101	resazurin	-	2–10 µM
NC[C@H]1O[C@H](O[C@H]2O[C@H](CN)[C@@H](O)[C@H](O)[C@H]2O)[C@H](O)[C@@H](O)[C@@H]1O	MIC	-	NJ3404	-	-	>128 µg/mL
O=C(Oc1cc(Cl)ccc1C(=O)Nc1cccc(Br)c1)c1ccccc1	MIC	-	330/88	broth dilution	21 d	8 µM
Cc1cn2c(C(=O)NCc3ccc(N4CCSCC4)c(F)c3)c(C)nc2s1	MIC	-	101	resazurin	-	<2 µM
Cc1cccc(C(=O)NCc2cccnc2)c1O	MIC	-	ATCC 25291	-	21 d	500 µM
CC(C)N=c1cc2n(-c3ccc(Cl)cc3)c3ccccc3nc-2cc1Nc1ccc(Cl)cc1	MIC	-	11882	-	-	5 µg/mL
CCCCCCOc1ccc(NC(=O)OCCN2CCCCCC2)cc1	MIC	-	MY330/88	-	-	16 µM
Clc1ccc(CNc2ccccc2N2CCOCC2)cc1	MIC	-	103317	-	-	4 µg/mL
O=c1oc2ccc(F)cc2c(=O)n1-c1cccc(F)c1	MIC	-	CNCTC MY330/88	-	-	31 µM
COc1cccc(NC(=O)OCC[NH+]2CCCC2)c1	MIC	-	MY330/88	-	-	>1000 µM
FC(F)(F)c1nc2c(Cl)cc(Cl)cc2[nH]1	MIC	-	MY330/88	-	-	62.5 µM
COc1ccc(C(=O)N/N=C(\N)SC)cc1	MIC	-	ATCC 19421	-	-	>100 µg/mL
NC[C@H]1O[C@H](O[C@H]2[C@H](O)[C@@H](O[C@H]3O[C@H](CO)[C@@H](O)[C@H](N)[C@H]3O)[C@H](N)C[C@@H]2N)[C@H](O)[C@@H](O)[C@@H]1O	Mean MIC	-	ATCC 25291	-	-	3.3 µg/mL
N/C(=N\N=C\c1ccc(Cl)c(Cl)c1)c1ccccn1	MIC	-	-	-	-	256 µg/mL
O=C(Oc1cc(Cl)ccc1C(=O)Nc1ccc(F)cc1)c1ccccc1	MIC	-	330/88	broth dilution	21 d	8 µM
CN1CCN(c2ccccc2NCc2ccc(-c3ccccc3)cc2)CC1	MIC	-	103317	-	-	2 µg/mL
CC1COc2c(N3CCN(C)CC3)c(F)cc3c(=O)c(C(=O)O)cn1c23	Mean MIC	-	ATCC 25291	-	-	6.25 µg/mL
CCCCC(CC)CN(CC(CC)CCCC)C[C@H]1O[C@H](O[C@H]2O[C@H](CN(CC(CC)CCCC)CC(CC)CCCC)[C@@H](O)[C@H](O)[C@H]2O)[C@H](O)[C@@H](O)[C@@H]1O	MIC	-	NJ211	-	-	8 µg/mL
O=C(NCc1cccc([N+](=O)[O-])c1)c1ncccc1S	MIC	-	CNCTC MY330/88	-	-	16 µM
CCCCCOc1ccccc1NC(=O)OCC[NH+]1CCCC1	MIC	-	MY330/88	-	-	62.5 µM
CC(C)(C)n1cc(C(=O)O)c(=O)c2cc(F)c(N3CCNCC3)nc21	MIC	-	LR114R	-	-	0.06 µg/mL
O=Cc1coc2ccc(F)cc2c1=O	MIC	-	MY330/88	-	-	>1000 µM
O=[N+]([O-])c1ccc(Sc2nc3c(Cl)cc(Cl)cc3[nH]2)c([N+](=O)[O-])c1	MIC	-	MY330/88	-	-	62.5 µM
O=C(NCc1cccc(Cl)c1)c1ncccc1O	MIC	-	CNCTC MY330/88	-	-	62.5 µM
COc1ccccc1/C=N/N=C(/N)c1ccccn1	MIC	-	-	-	-	128 µg/mL
N/C(=N\NC(=O)c1ccc(Cl)cc1)SCc1cccc(Cl)c1	MIC	-	ATCC 19421	-	-	>100 µg/mL
CCCOc1ccc(NC(=O)OCCN2CCOCC2)cc1	MIC	-	MY330/88	-	-	500 µM
O=C(Nc1cccc(F)c1)c1cc(Cl)ccc1O	MIC	-	330/88	broth dilution	21 d	31 µM
O=S(=O)(NC[C@H]1O[C@H](O[C@H]2O[C@H](CNS(=O)(=O)c3ccccc3)[C@@H](O)[C@H](O)[C@H]2O)[C@H](O)[C@@H](O)[C@@H]1O)c1ccccc1	MIC	-	NJ168	-	-	>128 µg/mL
N/C(=N\NC(=O)c1ccccc1)SCc1cccc(Cl)c1	MIC	-	ATCC 19421	-	-	>100 µg/mL
O=C(Nc1cccc(Cl)c1)c1ncccc1S	MIC	-	CNCTC MY330/88	-	-	62.5 µM
O=C(NCc1ccccn1)c1ccc(Cl)cc1O	MIC	-	ATCC 25291	-	21 d	500 µM
O=C(Oc1ccc(Cl)cc1C(=O)Nc1ccc(Cl)cc1)c1cnccn1	MIC	-	330/88	-	21 d	8 µM
COc1ccc(C(=O)NCc2cccnc2)c(O)c1	MIC	-	ATCC 25291	-	14 d	1000 µM
CN1CCN(c2cccc(NCc3ccc(-c4ccccc4)cc3)c2)CC1	MIC	-	103317	-	-	>16 µg/mL
NCC[C@H](O)C(=O)N[C@@H]1C[C@H](N)[C@@H](O[C@H]2O[C@H](CN)[C@@H](O)[C@H](O)[C@H]2O)[C@H](O)[C@H]1O[C@H]1O[C@H](CO)[C@@H](O)[C@H](N)[C@H]1O	MIC50	-	100 strains	-	-	2.65 µg/mL
O=C(Oc1ccc(Cl)cc1C(=O)Nc1cccc(Cl)c1)c1cnccn1	MIC	-	330/88	-	21 d	8 µM
CCCCCCCOc1ccccc1NC(=O)OCCN(C)C	MIC	-	MY330/88	-	-	16 µM
N/C(=N/N=C/c1cccc(F)c1)c1ccccn1	MIC	-	-	-	-	64 µg/mL
CC[C@H]1OC(=O)[C@H](C)C(=O)[C@H](C)[C@@H](O[C@@H]2O[C@H](C)C[C@H](N(C)C)[C@H]2O)[C@](C)(OC)C[C@@H](C)C(=O)[C@H](C)[C@H]2N(CCCCn3cnc(-c4cccnc4)c3)C(=O)O[C@]12C	MIC	-	Isolate 711	-	-	10 µg/mL
CCCN1CCN(c2cc3c(cc2F)c(=O)c(C(=O)O)cn3C2CC2)CC1	MIC50	-	-	-	-	1 µg/mL
C=CCS/C(N)=N/NC(=O)c1ccc(F)cc1	MIC	-	ATCC 19421	-	-	>100 µg/mL

MIC50, MIC90 and the like: level of inhibition, or share of isolates inhibited. a–b is a range or a potency band. Lines come from different laboratories, so protocols vary.